Anti-infective test results gathered from many reports (values: NIAID ChemDB through PubChem).

Shared fields: enzyme or target tests; species: HIV-1; protein: Reverse transcriptase; read-out: IC50

Two numbers with a dash give a range or band. An empty or dashed field is not shown. Rows are shuffled and stem from different studies. ICn is the concentration giving n% inhibition.

| smiles | mutations | read by | strain | result |
|---|---|---|---|---|
| O=C1c2cccc(O)c2C(=O)c2c(O)cc(CO)cc21 |  | RNase H / radiometric |  | 23 µM |
| COc1c2ccoc2c(S(=O)(=O)OC2CCCC2)c2oc(C)cc(=O)c12 |  | RT activity / radiometric |  | 0.0000091 µM |
| CC(C)(C)c1ccc(-n2nnnc2SCC(=O)Nc2ccc(NC(=O)Cc3ccccc3Cl)cc2Cl)c(Cl)c1 | RT-K103 Y181C | PicoGreen / fluorescence |  | <1 µM |
| CCCCCCCCCCCCCCCc1cccc(O)c1C(=O)O |  | RT activity / nucleotide incorporation |  | >100 µM |
| C=CC(C)(C)n1cc(C2=C(O)C(=O)C(c3cn(C(C)(C)C=C)c4ccccc34)=C(O)C2=O)c2ccccc21 |  | binding |  | 8.5 µM |
| CC(C)(C#Cc1ccc(NC(=O)CSc2nnnn2-c2ccc(CC3CC3)cc2Cl)c(Cl)c1)NC(=O)c1cc[n+]([O-])cc1 |  | PicoGreen / fluorescence | WT | <1 µM |
| CCOC(=O)C(=O)CC(=O)/C=C/c1cccn1Cc1ccccc1Cl | Q475A | RNase H / radiometric |  | 94 µM |
| CC(C)(C#Cc1ccc(NC(=O)CSc2nnc(C3CC3)n2-c2ccc(C3CC3)cc2Cl)c(Cl)c1)C(=O)O | RT-K103 Y181C | PicoGreen / fluorescence |  | <1 µM |
| O=S(=O)(c1ccc2ccccc2c1)c1c[nH]c2ccccc12 | K103N | RT activity |  | 76 µM |
| COc1c(/C=C/C(=O)c2ccc(Br)cc2)ccc2ccccc12 |  | RT activity / nucleotide incorporation |  | 6 µM |
| CCN1c2ncc(CCOc3ccc(CCC(=O)O)c4ccccc34)cc2C(=O)N(C)c2ccc(Cl)nc21 | RT-V106A | nucleotide incorporation / radiometric |  | 0.1–1 µM |
| CCCCCC/C=C/CCCCCCCc1cccc(O)c1C(=O)O |  | RT activity / RNase H |  | 33.7 µM |
| CC(=O)N(C)C1CCN(CCn2c(=O)nc(-c3ccccc3)c3oc4ccc(Br)cc4c32)C1 |  | PicoGreen / fluorescence |  | 5 µM |
| Cc1ccc(-c2c(OCC(=O)Nc3ccc(C#CC(C)(C)C(=O)O)cc3Cl)n[nH]c2C)c(Cl)c1 |  | PicoGreen / fluorescence | WT | <1 µM |
| CCCCCC/C=C/CCCCCCCCCc1cccc(O)c1 |  | RT activity / RNase H |  | >200 µM |
| COc1c(C(=O)/C=C(/C)Nc2ccccc2)c(O)c(S(=O)(=O)OC2CCCC2)c2occc12 |  | RT activity / radiometric |  | 0.0000079 µM |
| CCOCn1c(Cc2ccccc2)c(C(C)C)c(=O)[nH]c1=O | RT-W229F | radiometric |  | 0.13 µM |
| FC(F)c1nnc2c3ccccc3c(N3CCc4ccccc4C3)nn12 |  | RT activity / fluorescence | IIIB | 0.24 µM |
| COc1c(C(=O)/C=C(/C)Nc2ccc(Cl)cc2)c(O)c(S(=O)(=O)OC2CCCCC2)c2occc12 |  | RT activity / radiometric |  | 0.0000082 µM |
| CC(C)=CCCC(C)C1CC/C(C)=C/C/C=C(/C=O)C1C=O |  | radiometric |  | 9.2 µg/mL |
| CC(C)(N)C#Cc1ccc(NC(=O)CSc2nnnn2-c2cc(C(F)(F)F)ccc2Cl)c(Cl)c1F | RT-K103 Y181C | PicoGreen / fluorescence |  | <1 µM |
| CC[C@H]1C(=O)Nc2ccc(F)cc2N1C(=O)OC(C)C | RT-W229F | radiometric |  | 0.08 µM |
| O=C(N/N=C/c1cc(O)c(O)c(O)c1)c1ccccc1O |  | RNase H / fluorescence |  | 13.99 µM |
| COP(=O)(c1cc(C)cc(CCC#N)c1)c1c(C(N)=O)[nH]c2ccc(Cl)c(F)c12 | K103N | RT activity |  | 0.782 µM |
| CC(C)(C)c1ccc(-n2nnnc2SCC(=O)Nc2ccc(C(=O)Nc3ccncc3)cc2Cl)c(Cl)c1 | RT-K103 Y181C | PicoGreen / fluorescence |  | <1 µM |
| COc1c(/C=C/C(=O)c2ccc(-c3ccccc3)cc2)ccc2ccccc12 |  | RT activity / nucleotide incorporation |  | 4 µM |
| CO.COc1ccccc1CCNC(=S)[N-]c1ccccn1.COc1ccccc1CCNC(=S)[N-]c1ccccn1.[O]=[V+2] |  | radiometric |  | 0.87 µM |
| CC(C)(C)c1ccc(-n2nnnc2SCC(=O)Nc2ccc(OCC(=O)NCC3CCC(C(=O)O)CC3)cc2Cl)c(Cl)c1 | RT-K103 Y181C | PicoGreen / fluorescence |  | <1 µM |
| Cc1[nH]c2ccccc2c1S(=O)(=O)c1ccccc1 | K103N | RT activity |  | >100 µM |
| COc1cccc(-c2nnc3c4ccccc4c(N4CCc5ccccc5C4)nn23)c1 |  | RT activity / fluorescence | 98US_MSC5016 | >100 µM |
| Cc1cc(-n2nnnc2SCC(=O)Nc2ccc(C#CC(C)(C)O)cc2Cl)c(Cl)c(C(F)(F)F)c1 |  | PicoGreen / fluorescence | WT | <1 µM |
| CCN1c2ncc(CCOc3ccc(C(=O)O)c4c3CCN(S(C)(=O)=O)C4)cc2C(=O)N(C)c2cccnc21 | RT-K103N Y181C | nucleotide incorporation / radiometric |  | <0.1 µM |
| CO[C@H]1C(=O)OCC[C@H](O)c2cc(Cl)c3c(c2)[C@H](O)C[C@@H](O)C2(CO[C@]4(O)C(=C(C)C(=O)C15OC54)O2)[C@@H]3O |  | fluorescence |  | 13.98 µM |
| COC(=O)c1cccc(-c2ccc(NC(=O)CSc3nnnn3-c3ccc(C)cc3Cl)c(Cl)c2)c1 | RT-K103 Y181C | PicoGreen / fluorescence |  | <1 µM |
| Cc1cc(C)cc(S(=O)(=O)c2c(C(=O)NC(C)C(N)=O)[nH]c3ccc(Cl)cc23)c1 | WT | RT activity |  | 0.023 µM |
| COc1ccc(C(=O)/C=C/c2ccc3ccccc3c2OC)cc1 |  | RT activity / nucleotide incorporation |  | 6 µM |
| COc1c(-c2cc(C)n(-c3ccccc3)n2)c(O)c(S(=O)(=O)OC2CCCCC2)c2occc12 |  | RT activity / radiometric |  | 0.0000047 µM |
| Cc1cc(C)cc(S(=O)(=O)c2c(C(=O)NC(C)CC(N)=O)[nH]c3ccc(Cl)cc23)c1 | WT | RT activity |  | 0.49 µM |
| CC(C)(C(=O)O)c1ccc(-c2ccc(NC(=O)CSc3nnnn3-c3ccc(C4CC4)cc3Cl)c(Cl)c2)cc1 |  | PicoGreen / fluorescence | WT | <1 µM |
| CCN1c2ncc(CCOc3ccc(C(=O)O)c4c3CCC4)cc2C(=O)N(C)c2ccc(Cl)nc21 | RT-Y188L | nucleotide incorporation / radiometric |  | 0.1–1 µM |
| O=C(CSc1nnnn1-c1ccc(C(F)(F)F)cc1Cl)Nc1ccc(-c2ccc(OCCn3ccnc3)cc2)cc1Cl | RT-K103 Y181C | PicoGreen / fluorescence |  | <1 µM |
| CCOC(=O)c1c(O)c2cc(Oc3ccc(N(CC)CC)cc3)cnc2n(O)c1=O |  | luminescence |  | 0.22 µM |
| Cc1cc(NC(=O)COc2ccc(NC(=O)CSc3nnnn3-c3ccc(C(C)(C)C)cc3Cl)c(Cl)c2)no1 | RT-K103 Y181C | PicoGreen / fluorescence |  | <1 µM |
| Cc1c(S(=O)(=O)c2ccc(C(C)(C)C)cc2)[nH]c2ccccc12 | K103N | RT activity |  | 87 µM |
| COc1c(-c2cc(C)on2)c(O)c(S(=O)(=O)OC2CCCC2)c2occc12 |  | RT activity / radiometric |  | 0.0000062 µM |
| N#Cc1cc(Cl)cc(Oc2c(Cl)ccc(OCc3[nH]nc4ncccc34)c2F)c1 |  | scintillation proximity / radiometric |  | 0.011 µM |
| C=C1c2cc(CCOc3ccc(NS(C)(=O)=O)c4ccccc34)cnc2N(CC)c2ncccc2N1C |  | nucleotide incorporation / radiometric | WT | <0.1 µM |
| COc1ccc2c(c1)N(C(=O)OC(C)C)[C@@H](CSC)C(=S)N2 | RT-W229Y | radiometric |  | 0.02 µM |
| CCN1c2ncc(CCOc3ccc(/C=C(\C)C(=O)O)c4ccccc34)cc2C(=O)Nc2c(C)ccnc21 |  | nucleotide incorporation / radiometric | WT | <0.1 µM |
| CO.S=C([N-]c1ccc(Br)cn1)NCCc1ccccc1Cl.S=C([N-]c1ccc(Br)cn1)NCCc1ccccc1Cl.[O]=[V+2] |  | radiometric |  | 2.1 µM |
| Cc1nnc2n1CCN(c1nn3c(C4CC4)nnc3c3ccccc13)C2 |  | RT activity / fluorescence | KER2008 | >100 µM |
| CC(C)(C#Cc1ccc(NC(=O)CSc2nnnn2-c2cc(C3CC3)ccc2Cl)c(Cl)c1F)OCCN1CCNCC1 |  | PicoGreen / fluorescence | WT | <1 µM |
| C#CC(O)/C=C/C/C=C/C=C/C=C/CC#CC(O)C#CC/C=C/C=C/C=C/CC(O)C#C |  | radiometric |  | 2.6 µM |
| Cc1cc(C)c(-n2nnnc2SCC(=O)Nc2ccc(-c3ccc(CC(=O)O)cc3)cc2Cl)c(Cl)c1 | RT-K103 Y181C | PicoGreen / fluorescence |  | <1 µM |
| COc1ccc2c(c1)CN(c1nn3c(-c4cccs4)nnc3c3ccccc13)CC2 |  | RT activity / fluorescence | 98US_MSC5016 | 51.3 µM |
| CC(C)(C)c1ccc(-n2nnnc2SCC(=O)Nc2ccc(-c3ccc(OCCN4CCC(O)CC4)cc3)cc2Cl)c(Cl)c1 |  | PicoGreen / fluorescence | WT | <1 µM |
| CCN1c2ncc(CCOc3ccc(C(=O)O)c4c3CCCC4)cc2C(=O)N(C)c2ccc(C)nc21 |  | nucleotide incorporation / radiometric | WT | <0.1 µM |
| O=C(CSc1nnnn1-c1ccc(C2CC2)cc1Cl)Nc1ccc(C#CC2(CO)CC2)cc1Cl |  | PicoGreen / fluorescence | WT | <1 µM |
| c1ccc2c(c1)CCN(c1nn3c(C4CC4)nnc3c3ccccc13)C2 |  | RT activity / fluorescence | IIIB | 0.22 µM |
| CN(C)CCCC(=O)NC(C)(C)C#Cc1ccc(NC(=O)CSc2nnnn2-c2ccc(C3CC3)cc2Cl)c(Cl)c1F |  | PicoGreen / fluorescence | WT | <1 µM |
| CC(=O)Nc1ccc2c(c1)CN(c1nn3c(C4CC4)nnc3c3ccccc13)CC2 |  | RT activity / fluorescence | KER2008 | 0.11 µM |
| CC(C(=O)Nc1ccc(NC(=O)CSc2nnnn2-c2ccc(C(C)(C)C)cc2Cl)c(Cl)c1)c1ccccc1 | RT-K103 Y181C | PicoGreen / fluorescence |  | <1 µM |
| COc1c(C(=O)/C=C(/C)Nc2ccc(Cl)cc2)c(O)c(S(=O)(=O)OC2CCCC2)c2occc12 |  | RT activity / radiometric |  | 0.0000078 µM |
| CC(C)(C)c1ccc(-n2nnnc2SCC(=O)Nc2ccc(-c3cccc(C(=O)O)c3)cc2Cl)c(Cl)c1 |  | PicoGreen / fluorescence | WT | <1 µM |
| Cc1cc(S(N)(=O)=O)ccc1NC(=O)COc1ccccc1C(=O)c1cc(Cl)cc(C#N)c1 | RT-Y188L | fluorescence | NNRTI-resistant | 0.0238 µM |
| COc1c(C(=O)c2cnc3cc(=O)[nH]c(=O)n3c2)c(O)c(OC)c2occc12 |  | scintillation proximity / radiometric |  | 40.31 µM |
| Nc1nc2c(ncn2[C@H]2CC[C@@H](COP(=O)(O)OP(=O)(O)OP(=O)(O)O)O2)c(=O)[nH]1 |  | nucleotide incorporation |  | 0.06 µM |
| Nc1nc2c(ncn2[C@H]2CC[C@@H](COP(=O)(O)OP(=O)(O)OP(=O)(O)O)O2)c(=O)[nH]1 | RT-W229Y | radiometric |  | 0.57 µM |
| Cc1c(S(=O)(=O)c2ccccc2)[nH]c2ccccc12 | K103N | RT activity |  | >100 µM |
| Cc1ccc(-c2nnsc2SCC(=O)Nc2ccc(-c3ccc(CC(=O)O)cc3)cc2Cl)c(Cl)c1 | RT-K103 Y181C | PicoGreen / fluorescence |  | <1 µM |
| CCN1c2ncc(CCOc3ccc(/C=C(\C)C(=O)O)c4ccccc34)cc2C(=O)N(C)c2ccc(Cl)nc21 |  | nucleotide incorporation / radiometric | WT | <0.1 µM |

The last 5 rows once more:

smiles,mutations,read by,strain,result
Nc1nc2c(ncn2[C@H]2CC[C@@H](COP(=O)(O)OP(=O)(O)OP(=O)(O)O)O2)c(=O)[nH]1,,nucleotide incorporation,,0.06 µM
Nc1nc2c(ncn2[C@H]2CC[C@@H](COP(=O)(O)OP(=O)(O)OP(=O)(O)O)O2)c(=O)[nH]1,RT-W229Y,radiometric,,0.57 µM
Cc1c(S(=O)(=O)c2ccccc2)[nH]c2ccccc12,K103N,RT activity,,>100 µM
Cc1ccc(-c2nnsc2SCC(=O)Nc2ccc(-c3ccc(CC(=O)O)cc3)cc2Cl)c(Cl)c1,RT-K103 Y181C,PicoGreen / fluorescence,,<1 µM
CCN1c2ncc(CCOc3ccc(/C=C(\C)C(=O)O)c4ccccc34)cc2C(=O)N(C)c2ccc(Cl)nc21,,nucleotide incorporation / radiometric,WT,<0.1 µM